Results of unrelated studies side by side (data: NIAID ChemDB).

Shared fields: tests in culture; agent: Mycobacterium avium intracellulare; read-out: MIC

Lines come from different laboratories, so protocols vary.

N/C(=N\N=C\c1cc2ccccc2s1)c1cnccn1 ; result: >16 µg/mL
CCCCCCCCCCCCO/N=C1\[C@H](C)CC(C)(O)[C@H](O[C@@H]2O[C@H](C)C[C@H](N(C)C)[C@H]2O)[C@@H](C)[C@H](O[C@H]2C[C@@](C)(OC)[C@@H](OC(C)=O)[C@H](C)O2)[C@@H](C)C(=O)O[C@H](CC)[C@@](C)(O)[C@H](O)[C@H]1C ; strain: 20066 (clarithromycin-susceptible) ; result: 6.25 µg/mL
C[C@@H]1CN(c2c(F)c(N)c3c(=O)c(C(=O)O)cn(C4CC4)c3c2F)C[C@H](C)N1 ; strain: N-486 (HIV-) ; result: 4 µg/mL
CC[C@H]1OC(=O)[C@H](C)[C@@H](O[C@H]2C[C@@](C)(OC)[C@@H](OC(C)=O)[C@H](C)O2)[C@H](C)[C@@H](O[C@@H]2O[C@H](C)C[C@H](N(C)C)[C@H]2OC(=O)NNCCCc2ccccc2)C(C)(O)C[C@@H](C)/C(=N\OCCCC2CCCCC2)[C@H](C)[C@@H](O)[C@]1(C)O ; strain: 20066 (clarithromycin-susceptible) ; result: 0.78 µg/mL
Cc1ccc2oc(/C=N/N=C(\N)c3ccccn3)nc2c1 ; result: >16 µg/mL
CCOCCN(CCOCC)c1ccc2nc3c(oc2c1)c1c(O)c2c(=O)c(C)c4c(c23)C(=O)[C@@](C)(O/C=C/[C@H](OC)[C@@H](C)[C@@H](OC(C)=O)[C@H](C)[C@H](O)[C@H](C)[C@@H](O)[C@@H](C)/C=C/C=C(/C)C(=O)N1)O4 ; strain: Shibazaki ; result: 0.63 µg/mL
CCCCCCCCNNC(=O)O[C@H]1[C@H](O[C@@H]2[C@@H](C)[C@H](O[C@H]3C[C@@](C)(OC)[C@@H](OC(C)=O)[C@H](C)O3)[C@@H](C)C(=O)O[C@H](CC)[C@@](C)(O)[C@H](O)[C@@H](C)/C(=N/OCCCC3CCCCC3)[C@H](C)CC2(C)O)O[C@H](C)C[C@@H]1N(C)C ; strain: 20066 (clarithromycin-susceptible) ; result: 6.25 µg/mL
CC[C@H]1OC(=O)[C@H](C)[C@@H](O[C@H]2C[C@@](C)(OC)[C@@H](O)[C@H](C)O2)[C@H](C)[C@@H](O[C@@H]2O[C@H](C)C[C@H](N(C)C)[C@H]2O)[C@](C)(OC)C[C@@H](C)C(=O)[C@H](C)[C@@H](O)[C@]1(C)O ; strain: N-260 ; result: 4 µg/mL
N/C(=N\N=C\c1cc2ccccc2o1)c1ccccn1 ; result: >16 µg/mL
CN[C@@H]1[C@H](O[C@H]2[C@H](O[C@H]3[C@H](O)[C@@H](O)[C@H](N=C(N)N)[C@@H](O)[C@@H]3N=C(N)N)O[C@@H](C)[C@]2(O)C=O)O[C@@H](CO)[C@H](O)[C@H]1O ; strain: N-846 (HIV-) ; result: 4 µg/mL
COc1c(N2CCNC(C)C2)c(F)cc2c(=O)c(C(=O)O)cn(C3CC3)c12 ; strain: N-260 ; result: 6.25 µg/mL
Clc1ccc2c(c1)nc1cc(Nc3ccccc3)c(=NC3CCCCC3)cc-1n2-c1ccccc1 ; strain: 97002 ; result: 0.5 µg/mL
N/C(=N\N=C\c1nc2ccccc2o1)c1cnccn1 ; result: >16 µg/mL
CC[C@H]1OC(=O)[C@H](C)[C@@H](O[C@H]2C[C@@](C)(OC)[C@@H](OC(C)=O)[C@H](C)O2)[C@H](C)[C@@H](O[C@@H]2O[C@H](C)C[C@H](N(C)C)[C@H]2OC(=O)NNCc2ccccc2OC)C(C)(O)C[C@@H](C)/C(=N\OCCCC2CCCCC2)[C@H](C)[C@@H](O)[C@]1(C)O ; strain: 20066 (clarithromycin-susceptible) ; result: 0.39 µg/mL
N/C(=N\N=C\c1nc2ccccc2o1)c1ccccn1 ; result: >16 µg/mL
CO[C@H]1/C=C/O[C@@]2(C)Oc3c(C)c(O)c4c(=O)c(c5oc6cc(N7CCN(CC(C)C)CC7)cc(=O)c6nc5c4c3=C2O)NC(=O)/C(C)=C\C=C\[C@H](C)[C@H](O)[C@@H](C)[C@@H](O)[C@@H](C)[C@H](OC(C)=O)[C@@H]1C ; strain: N-919 (HIV-) ; result: 0.0313 µg/mL
N/C(=N\N=C\c1nc2ccc([N+](=O)[O-])cc2o1)c1cnccn1 ; result: >16 µg/mL
CCN(CC)c1ccc2nc3c(oc2c1)c1c(O)c2c(=O)c(C)c4c(c23)C(=O)[C@@](C)(O/C=C/[C@H](OC)[C@@H](C)[C@@H](OC(C)=O)[C@H](C)[C@H](O)[C@H](C)[C@@H](O)[C@@H](C)/C=C/C=C(/C)C(=O)N1)O4 ; strain: Shibazaki ; result: 1.25 µg/mL
CO[C@H]1/C=C/O[C@@]2(C)Oc3c(C)c(O)c4c(O)c(c5c(c4c3C2=O)NC2(CCN(CC(C)C)CC2)N=5)=NC(=O)/C(C)=C\C=C\[C@H](C)[C@H](O)[C@@H](C)[C@@H](O)[C@@H](C)[C@H](OC(C)=O)[C@@H]1C ; strain: 74 ; result: 0.062 µg/mL
Oc1ccc(CCN=C=S)cc1 ; method: visual reading ; result: 32 µg/mL
CC(=O)NC[C@H]1CN(c2ccc(N3CCN(c4ccc([N+](=O)[O-])s4)CC3)c(F)c2)C(=O)O1 ; strain: F21/12 ; result: 0.25 µg/mL
Cc1c(C)c(C)[c-](C)c1C.N[C@@H](Cc1ccccc1)C(=O)[O-].[Cl][Ir+2] ; strain: 1406T ; result: 61 µg/mL
N/C(=N\N=C\c1ccncc1)c1cnccn1 ; result: >16 µg/mL
CCCCNNC(=O)O[C@H]1[C@H](O[C@@H]2[C@@H](C)[C@H](O[C@H]3C[C@@](C)(OC)[C@@H](OC(C)=O)[C@H](C)O3)[C@@H](C)C(=O)O[C@H](CC)[C@@](C)(O)[C@H](O)[C@@H](C)/C(=N/OCCCC3CCCCC3)[C@H](C)CC2(C)O)O[C@H](C)C[C@@H]1N(C)C ; strain: 20066 (clarithromycin-susceptible) ; result: 0.78 µg/mL

Repeating the final 3 entries:

compound	strain	method	result
Cc1c(C)c(C)[c-](C)c1C.N[C@@H](Cc1ccccc1)C(=O)[O-].[Cl][Ir+2]	1406T	-	61 µg/mL
N/C(=N\N=C\c1ccncc1)c1cnccn1	-	-	>16 µg/mL
CCCCNNC(=O)O[C@H]1[C@H](O[C@@H]2[C@@H](C)[C@H](O[C@H]3C[C@@](C)(OC)[C@@H](OC(C)=O)[C@H](C)O3)[C@@H](C)C(=O)O[C@H](CC)[C@@](C)(O)[C@H](O)[C@@H](C)/C(=N/OCCCC3CCCCC3)[C@H](C)CC2(C)O)O[C@H](C)C[C@@H]1N(C)C	20066 (clarithromycin-susceptible)	-	0.78 µg/mL

An empty or dashed field is not shown.